Reference: article PMC4802734 (Cell Chemical Biology, 2016)
Where two headings read alike, the source gives them in different places.

Experiments:
PrfAWT = PrfAWT (Listeria monocytogenes serovar 1/2a, UniProt P22262)
PrfAG145S = PrfAG145S (Listeria monocytogenes serovar 1/2a, UniProt P22262, G145S); conditions: ITC, determined at 293 K
[1] = target: PrfAWT binding to hly-DNA (Listeria monocytogenes serovar 1/2a, UniProt P22262); assay: SPR, binding of compound-pre-incubated PrfAWT to hly-promoter DNA; conditions: read-out: IC50, reduction of binding of PrfAWT to hly-DNA, 200 nM protein, 37°C
[2] = tested on: L. monocytogenes strain EGDe (WT) uptake by HeLa cells; assay: Viable count uptake experiment, L. monocytogenes EGDe in HeLa cells; conditions: 10 and 1 μM
[3] = tested on: LLO and ActA expression in L. monocytogenes; assay: Western blot of virulence protein levels (LLO, ActA, PrfA, P60), EGDe
[4] = tested on: LLO expression in L. monocytogenes 10403S, LO28 and F2365; assay: Western blot of LLO and PrfA in other L. monocytogenes strains (10403S, LO28, F2365); conditions: 100 μM
[5] = tested on: pilus biogenesis in E. coli; conditions: 3.6 mM; ref Pinkner et al., 2006; cited from earlier work
[6] = tested on: Crp-regulated pili expression in E. coli; conditions: 800 μM; ref Cegelski et al., 2009; Chorell et al., 2010; cited from earlier work

O=C(O)[C@@H]1CSc2c(C3CC3)c(Cc3cccc4ccccc34)cc(=O)n21
binding stoichiometry per monomer of homodimeric PrfA (PrfAWT; ITC): 1 to 1 | Kd (PrfAWT; ITC, determined at 293 K): 1 µM | ΔHA, enthalpy of association (PrfAWT; ITC, determined at 293 K): -8.4 ± 0.1 kcal/mol | ΔSA, entropy of association (PrfAWT; ITC, determined at 293 K): −0.8 ± 0.1 cal/mol·K | Kd (PrfAWT; read-out: dissociation constant (KD), ITC, 1 to 1 binding model): 1 µM | Kd (PrfAG145S): 7.75 µM | ΔHA, enthalpy of association (PrfAG145S): -6.2 kcal/mol | ΔSA, entropy of association (PrfAG145S): 2.6 cal/mol·K | IC50 [1]: 6 to 7 µM | L. monocytogenes uptake relative to untreated controls [2]: reducing the level of L. monocytogenes uptake | expression of LLO and ActA (protein) ([3]; 100 μM): abolished | PrfA expression (protein) ([3]; across all concentrations): remained unchanged | concentration down to which LLO and ActA levels were decreased ([3]; dose dependent): ≤ 3.3 µM | LLO expression in strains 10403S, LO28 and F2365 [4]: effectively reduced LLO expression | levels of PrfA in strains 10403S, LO28 and F2365 [4]: unaffected | pilus biogenesis in E. coli [5]: blocked pilus biogenesis | effect on the Crp-regulated pili expression in E. coli [6]: no effect
